Pooled drug test results. Numbers come from NIAID ChemDB, via PubChem.

All rows: tests in culture; organism: Aspergillus fumigatus

Blank or dashed fields: not listed here.

smiles | strain or isolate | read-out | mutations | method | result
N#Cc1ccc(-c2[nH]c3ccccc3c2-c2c(CN)c(N)n3c(nc4ccccc43)c2CN)cc1 | MTCC 3008 | MIC |  | broth dilution | 1000 µg/mL
COc1cc(O)c2c(c1)C(=O)c1c(cc3c(c1O)-c1c(cc(C)c(C(=O)NC(C)C(=O)O)c1O)[C@H](OC1OC(C)C(N(C)CC(=O)O)C(OC4OCC(O)C(O)C4O)C1O)[C@H]3O)C2=O | IAM2034 | MIC |  |  | 6.3 µg/mL
CC1=CC[C@@H]2[C@H](C1)C2(C)C | F17 | MLC |  |  | 0.64 µg/mL
CCN1CCN(c2nc(Nc3ccc(C#N)c(C(F)(F)F)c3)nc(Oc3cccc4cccnc34)n2)CC1 | MTCC 343 | MIC |  | agar | 50 µg/mL
CCCCN(Cc1cn(Cc2cccc(F)c2)nn1)CC(O)(Cn1cncn1)c1ccc(F)cc1F |  | MIC80 |  |  | >64 µg/mL
CCCCCCCCCCCCCCCC(=O)NC(CCCN)C(=O)NC(CCCN)C(=O)NC(CCCN)C(=O)NC(CCCN)C(=O)NC(CCCN)C(N)=O | ATCC 42203 | MIC |  | broth dilution | 1.5 µg/mL
CCOC(=O)C1=C(C)NC(C)=C(C(=O)OCC)C1c1ccc(OC)c(O)c1 |  | MIC |  |  | 500 µg/mL
COc1cc(/C=C2\SC(=S)NC2=O)ccc1OCC(O)(Cn1cncn1)c1ccc(F)cc1F | ATCC 46645 | MIC50 |  | broth dilution | 16 µg/mL
OB1OCc2ccc3ccccc3c21 |  | MIC |  |  | 32 µg/mL
COC(=O)/C=C/c1ccc(OC)cc1 |  | MIC |  | broth dilution / resazurin | 125 µg/mL
O=C1O/C(=C\c2ccc(OCC(O)(Cn3cncn3)c3ccc(F)cc3F)cc2)C(c2ccc(F)cc2F)=C1c1ccc(Cl)cc1 | ATCC 46645 | MIC50 |  | broth dilution | 4 µg/mL
COc1cnc2c3c(nccc13)C(=O)c1ccccc1-2 | ATCC 26934 | MIC |  |  | 3.12 µg/mL
Cc1cc(O)c2c(c1)C(=O)c1cc(O)c(O)c(O)c1C2=O |  | MIC100 |  | visual reading | 35–71 µM
N#Cc1ccc(Nc2nc(Oc3cccc4cccnc34)nc(N3CCN(c4ccccc4)CC3)n2)cc1C(F)(F)F | MTCC 343 | MIC |  | agar | 100 µg/mL
CCC(C)n1ncn(-c2ccc(N3CCN(c4ccc(OC[C@H]5CO[C@](Cn6cncn6)(c6ccc(Cl)cc6Cl)O5)cc4)CC3)cc2)c1=O | NCIM 902 | MIC |  |  | <6.25 µg/mL
CCCCCCCCC[C@@H]1CC(=O)NCC(=O)N[C@@H](CCCCN)C(=O)N[C@@H](CCCCN)C(=O)N1 | TIMM0063 | MIC |  |  | >128 µg/mL
Cc1ccc2c(c1)nc1c(CN)c(-c3c(-c4ccccc4)[nH]c4ccccc34)c(CN)c(N)n12 | MTCC 3008 | MIC |  | broth dilution | >1000 µg/mL
CCCCN(Cc1cn(Cc2cccc(Br)c2)nn1)CC(O)(Cn1cncn1)c1ccc(F)cc1F |  | MIC80 |  |  | >64 µg/mL
Clc1ccc(COC(Cn2ccnc2)c2ccc(Cl)cc2Cl)c(Cl)c1 | 25 isolates | MIC90 |  |  | 4 µg/mL
CC(=O)OC(CCCC12OC(C(=O)O)C(O)(C(=O)O)C(C(=O)O)(O1)C(OC(=O)CCCCCC/C=C/c1ccccc1)C2O)C(C)C/C=C/c1ccccc1 | 10569 | MIC |  |  | 0.8 µg/mL
COc1cc(O)c2c(c1)C(=O)c1c(cc3c(c1O)-c1c(cc(C)c(C(=O)NC(C)C(=O)O)c1O)[C@H](OC1OC(C)C(N(CC(=O)O)CC(=O)O)C(OC4OCC(O)C(O)C4O)C1O)[C@H]3O)C2=O | IAM2034 | MIC |  |  | >100 µg/mL
CCCCN(Cc1cn(Cc2ccc(Br)cc2)nn1)CC(O)(Cn1cncn1)c1ccc(F)cc1F |  | MIC80 |  |  | >64 µg/mL
CC1(O)OC(=O)C(c2ccc(OCC(O)(Cn3cncn3)c3ccc(F)cc3F)cc2)=C1c1ccc(F)cc1F | ATCC 46645 | MIC50 |  | broth dilution | 16 µg/mL
CCCCN(Cc1cn(Cc2ccc(F)cc2)nn1)CC(O)(Cn1cncn1)c1ccc(F)cc1F |  | MIC80 |  |  | >64 µg/mL
CCCCCCCCCCC[C@@H]1CC(=O)NCC(=O)N[C@@H](CCCCN)C(=O)N[C@@H](CC(C)(C)C)C(=O)N1 | TIMM0063 | MIC |  |  | 8 µg/mL
C[N+](C)(C)CCOP(=O)([O-])OCCCCCCCCCCCCCCCCCCCCCCOP(=O)([O-])OCC[N+](C)(C)C |  | MIC |  |  | 0.08 µg/mL
C[C@H]1[C@H](O)[C@@H](C)/C=C/C=C/C=C/C=C/C=C/C=C/C=C/[C@H](O[C@@H]2O[C@H](C)[C@@H](O)[C@H](N)[C@@H]2O)C[C@@H]2O[C@](O)(C[C@@H](O)C[C@@H](O)CC[C@H](O)[C@@H](O)C[C@@H](O)CC(=O)O[C@H]1C)C[C@H](O)[C@H]2C(=O)O |  | MIC50 |  |  | 0.5 µg/mL
COc1ccc2c(c1OC)CN1CCc3cc4c(cc3C1=C2)OCO4 | ATCC 16424 | MIC |  |  | >128 µg/mL
CCC(C)n1ncn(-c2ccc(N3CCN(c4ccc(OC[C@H]5CO[C@](Cn6cncn6)(c6ccc(Cl)cc6Cl)O5)cc4)CC3)cc2)c1=O | MF5668 | MIC |  |  | 0.25 µg/mL
CCCCCCCCCC(=O)NC(CCCN)C(=O)NC(CCCN)C(N)=O | ATCC 42203 | MIC |  | broth dilution | 100 µg/mL
CCOC(=O)C1=C(C)NC(C)=C(C(=O)OCC)C1c1ccc(OC)cc1 |  | MIC |  |  | 15.62 µg/mL
C[C@@H](c1ncncc1F)[C@](O)(Cn1cncn1)c1ccc(F)cc1F | 150 clinical isolates | MIC90 |  |  | 0.5 µg/mL
Cc1cccc(CC(=O)Nc2nc(-c3cccc(Cl)c3)cs2)c1 | NCIM 902 | MIC |  |  | 6.25 µg/mL
CCCCCCCCCC[C@@H]1NC(=O)[C@H](CC(C)(C)C)NC(=O)[C@H](CCCCN)NC(=O)CNC(=O)[C@H]1O |  | MIC |  |  | 32 µg/mL
COc1ccc(C=O)cc1OCC(O)(Cn1cncn1)c1ccc(F)cc1F | ATCC 46645 | MIC50 |  | broth dilution | 128 µg/mL
C[C@@H](c1nc(-c2ccc(C#N)cc2)cs1)[C@](O)(Cn1cncn1)c1cc(F)ccc1F | 62 isolates | MIC50 |  |  | 0.5 µg/mL
C=C1/C=C(\C)[C@H](CC)OC(=O)[C@H](C)C(=O)C(O)(CO)C/C(C)=C/[C@@H](C)C1 | MF5668 | MIC |  |  | 200 µg/mL
COc1cc(O)c2c(c1)C(=O)c1c(cc3c(c1O)-c1c(cc(C)c(C(=O)NC(C)C(=O)O)c1O)[C@H](OC1OC(C)C(N(C)C(=O)CCC(=O)O)C(OC4OCC(O)C(O)C4O)C1O)[C@H]3O)C2=O | IAM2034 | MIC |  |  | >100 µg/mL
CC(=O)N1CCN(c2ccc(OC[C@H]3CO[C@](Cn4ccnc4)(c4ccc(Cl)cc4Cl)O3)cc2)CC1 | 25 isolates | MIC50 |  |  | 8 µg/mL
Cc1ccc(C(C)C)cc1O | F17 | MLC |  |  | 0.16 µg/mL
CCC(C)CC(C)CCCCCCCCC(=O)N[C@H]1C[C@@H](O)[C@H](NCCN)NC(=O)[C@@H]2[C@@H](O)CCN2C(=O)[C@H]([C@H](O)CCN)NC(=O)[C@H]([C@H](O)[C@@H](O)c2ccc(O)cc2)NC(=O)[C@@H]2C[C@@H](O)CN2C(=O)[C@H]([C@@H](C)O)NC1=O | 62 isolates | Geometric mean MIC |  |  | 0.437 µg/mL
Cc1ccc(-c2[nH]c3ccccc3c2-c2c(CN)c(N)n3c(nc4ccccc43)c2CN)cc1 | MTCC 3008 | MIC |  | broth dilution | 1000 µg/mL
N#Cc1ccc(Nc2nc(Oc3cccc4cccnc34)nc(N3CCN(c4cccc(Cl)c4Cl)CC3)n2)cc1C(F)(F)F | MTCC 343 | MIC |  | agar | 6.25 µg/mL
CCCCCCCCC[C@@H]1CC(=O)NCC(=O)N[C@@H](CCCCNC)C(=O)N[C@@H](C(C)C)C(=O)N1 | TIMM0063 | MIC |  |  | >128 µg/mL
CCCCCCCCC[C@@H]1CC(=O)NCC(=O)N[C@@H](CCCCN)C(=O)N[C@@H](CC(C)(C)C)C(=O)N1 |  | MIC |  |  | 32 µg/mL
CCCCCCCCCCCC(=O)NC(CCCN)C(=O)NC(CCCN)C(=O)NC(CCCN)C(=O)NC(CCCN)C(N)=O | ATCC 42203 | MIC |  | broth dilution | 6.25 µg/mL
COC(=O)[C@H]1[C@@H]2C[C@@H](O[C@@H]3O[C@H](C)[C@@H](O)[C@H](N)[C@@H]3O)/C=C/C=C/C=C/C=C/C=C/C=C/C=C/[C@H](C)[C@@H](O)[C@H](C)[C@H](C)OC(=O)C[C@H](O)C[C@H](O)[C@@H](O)CC[C@H](O)C[C@H](O)C[C@](O)(C[C@@H]1O)O2 | 35 isolates | Geometric mean MIC |  |  | 1 µg/mL
CC[C@@H]1OC(=O)[C@H](C)C(=O)C(O)(CO)C/C(Cl)=C/[C@@H](C)Cc2cccc1c2 | TIMM1776 | MIC |  |  | >64 µg/mL
COC(=O)C1=C(C)NC(C)=C(C(=O)OC)C1c1ccc(OC)cc1 |  | MIC |  |  | 31.25 µg/mL
C=C1/C=C(\C)[C@H](CC)OC(=O)[C@H](C)C(=O)C(O)(CO)C/C(C)=C/[C@@H](C)C1 | MF5668 | MIC |  |  | >200 µg/mL
C[C@H]1[C@H](O)[C@@H](C)/C=C/C=C/C=C/C=C/C=C/C=C/C=C/[C@H](O[C@@H]2O[C@H](C)[C@@H](O)[C@H](N)[C@@H]2O)C[C@@H]2O[C@](O)(C[C@@H](O)C[C@@H](O)CC[C@H](O)[C@@H](O)C[C@@H](O)CC(=O)O[C@H]1C)C[C@H](O)[C@H]2C(=O)O | 94 isolates | MFC90 |  |  | 2 µg/mL
CCC(C)n1ncn(-c2ccc(N3CCN(c4ccc(OC[C@H]5CO[C@](Cn6cncn6)(c6ccc(Cl)cc6Cl)O5)cc4)CC3)cc2)c1=O |  | MLC90 |  |  | 2 µg/mL
CCOC(=O)C1=C(C)NC(C)=C(C(=O)OCC)C1c1ccccc1Br |  | MIC |  |  | >1000 µg/mL
CS(=O)(=O)c1ccc(-c2[nH]c3ccccc3c2-c2c(CN)c(N)n3c(nc4ccccc43)c2CN)cc1 | MTCC 3008 | MIC |  | broth dilution | 1000 µg/mL
COC(=O)C1=C(C)NC(C)=C(C(=O)OC)C1c1cccc(O)c1 |  | MIC |  |  | 500 µg/mL
CCCCCCCCC[C@@H]1CC(=O)NCC(=O)N[C@@H](Cc2cnc[nH]2)C(=O)N[C@@H](C(C)C)C(=O)N1 | TIMM0063 | MIC |  |  | >32 µg/mL
Cc1ccc2c(c1)nc1c(CN)c(-c3c(-c4ccc(C#N)cc4)[nH]c4ccccc34)c(CN)c(N)n12 | MTCC 3008 | MIC |  | broth dilution | 500 µg/mL
OO |  | MIC99 | sakA deletion | agar | 4000 µM
CCCCCCCCCC[C@H]1NC(=O)[C@H](CC(C)(C)C)NC(=O)[C@H](CCCCN)NC(=O)CNC(=O)[C@H]1O |  | MIC |  |  | 32 µg/mL
COc1cc(O)c2c(c1)C(=O)c1c(cc3c(c1O)-c1c(cc(C)c(C(=O)NC(C)C(=O)O)c1O)[C@H](OC1OC(C)C(N(C)C/C=C/C(=O)O)C(OC4OCC(O)C(O)C4O)C1O)[C@H]3O)C2=O | IAM2034 | MIC |  |  | 6.3 µg/mL
Cc1cccc(CC(=O)Nc2nc(C)cs2)c1 | NCIM 902 | MIC |  |  | 12.5 µg/mL
CCCCN(Cc1cn(Cc2cccc(Cl)c2)nn1)CC(O)(Cn1cncn1)c1ccc(F)cc1F |  | MIC80 |  |  | >64 µg/mL
CCCCCCCCC[C@H]1NC(=O)[C@H](CC(C)(C)C)NC(=O)[C@H](CCCN)NC(=O)CNC(=O)C1(F)F |  | MIC |  |  | >128 µg/mL
CCCC[C@@H](C)/C=C(C)/C=C(\C)C(=O)N/C(=C/[C@@](C)(O)/C=C/C=C/C=C/C(=O)NC1=C(O)CCC1=O)C(=O)[C@@H]1CO1 | 2 | MIC |  | broth dilution | 400 µM
Cc1ccc2c(c1)nc1c(CN)c(-c3c(-c4ccc([N+](=O)[O-])cc4)[nH]c4ccccc34)c(CN)c(N)n12 | MTCC 3008 | MIC |  | broth dilution | 1000 µg/mL
CC(=O)N1CCN(c2nc(Nc3ccc(C#N)c(C(F)(F)F)c3)nc(Oc3cccc4cccnc34)n2)CC1 | MTCC 343 | MIC |  | agar | 25 µg/mL

Repeating the first 10 entries:

smiles | strain or isolate | read-out | mutations | method | result
N#Cc1ccc(-c2[nH]c3ccccc3c2-c2c(CN)c(N)n3c(nc4ccccc43)c2CN)cc1 | MTCC 3008 | MIC |  | broth dilution | 1000 µg/mL
COc1cc(O)c2c(c1)C(=O)c1c(cc3c(c1O)-c1c(cc(C)c(C(=O)NC(C)C(=O)O)c1O)[C@H](OC1OC(C)C(N(C)CC(=O)O)C(OC4OCC(O)C(O)C4O)C1O)[C@H]3O)C2=O | IAM2034 | MIC |  |  | 6.3 µg/mL
CC1=CC[C@@H]2[C@H](C1)C2(C)C | F17 | MLC |  |  | 0.64 µg/mL
CCN1CCN(c2nc(Nc3ccc(C#N)c(C(F)(F)F)c3)nc(Oc3cccc4cccnc34)n2)CC1 | MTCC 343 | MIC |  | agar | 50 µg/mL
CCCCN(Cc1cn(Cc2cccc(F)c2)nn1)CC(O)(Cn1cncn1)c1ccc(F)cc1F |  | MIC80 |  |  | >64 µg/mL
CCCCCCCCCCCCCCCC(=O)NC(CCCN)C(=O)NC(CCCN)C(=O)NC(CCCN)C(=O)NC(CCCN)C(=O)NC(CCCN)C(N)=O | ATCC 42203 | MIC |  | broth dilution | 1.5 µg/mL
CCOC(=O)C1=C(C)NC(C)=C(C(=O)OCC)C1c1ccc(OC)c(O)c1 |  | MIC |  |  | 500 µg/mL
COc1cc(/C=C2\SC(=S)NC2=O)ccc1OCC(O)(Cn1cncn1)c1ccc(F)cc1F | ATCC 46645 | MIC50 |  | broth dilution | 16 µg/mL
OB1OCc2ccc3ccccc3c21 |  | MIC |  |  | 32 µg/mL
COC(=O)/C=C/c1ccc(OC)cc1 |  | MIC |  | broth dilution / resazurin | 125 µg/mL

Rows are shuffled and stem from different studies. A number after MIC or MFC names an inhibition level or a share of isolates. Two numbers with a dash give a range or band.